Test results: patent publication US20090053187A1 (priority 2005, published 2009)

System: STI-1
Conditions: strain STI-1

Compound | Zone of culture growth delay at using discs with antibiotics
O=C(N[C@H](CO)[C@H](O)c1ccc([N+](=O)[O-])cc1)C(Cl)Cl | 4 mm
CC[C@H]1OC(=O)[C@H](C)[C@@H](O[C@H]2C[C@@](C)(OC)[C@@H](O)[C@H](C)O2)[C@H](C)[C@@H](O[C@@H]2O[C@H](C)C[C@H](N(C)C)[C@H]2O)[C@](C)(O)C[C@@H](C)C(=O)[C@H](C)[C@@H](O)[C@]1(C)O | 3 mm
